PubChem BioAssay AID504761, Drosophila RNAi Screening Center | 2011
Aim: 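Insect host genes that dengue virus relies on to spread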 (primary screen). Cell system: D.Mel-2 cells from Drosophila. Reagent: long dsRNA against Drosophila genes. Challenge: infection with dengue virus type 2; dose and infection time not stated. Read-out: 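Cells stained for dengue envelope protein and imaged; percent of infected cells per well on duplicate plates, ranked by infection, with stained nuclei counted for cell number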. Scale: infection score: higher = more virus-infected cells; cell count: higher = more cells in the well. Active means: 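Low infection ranks in the two replicates (chance level up to 0.065) followed by a retest with a 1.5-fold or larger significant decrease, p below 0.05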. Calls: active = confirmed: knock-down lowers infection; inactive = not picked or not confirmed.
In all, the deposit lists about 22,000 reagents; this is an unselected part of those that have a named target and a result. Of all reagents, 116 (0.52%) were called active. 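Calls depend on retest data that are not deposited; infection was ranked per plate without normalising between plates; the unit of the infection score is not given.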 The raw values are shown without normalisation. Entries without a mark were called inactive. The numbers tell different reagents against one gene apart. The record does not give: the amount of reagent, the time to read-out.

CG13829
- infection score, replicate 1: 4.96
- infection score, replicate 2: 2.09
- cell count, replicate 1: 6558
- cell count, replicate 2: 6834

pins
- infection score, replicate 1: 6.55
- infection score, replicate 2: 3.09
- cell count, replicate 1: 5989
- cell count, replicate 2: 6839

CG6495 #1
- infection score, replicate 1: 8.02
- infection score, replicate 2: 8.41
- cell count, replicate 1: 5763
- cell count, replicate 2: 5793

CG6495 #2
- cell count, replicate 1: 464
- cell count, replicate 2: 260

CG42258 #1
- infection score, replicate 1: 9.79
- infection score, replicate 2: 0.97
- cell count, replicate 1: 6455
- cell count, replicate 2: 6794

CG42258 #2
- infection score, replicate 1: 1.58
- infection score, replicate 2: 10.1
- cell count, replicate 1: 7046
- cell count, replicate 2: 3014

CG42258 #3
- infection score, replicate 1: 12.2
- infection score, replicate 2: 38
- cell count, replicate 1: 5615
- cell count, replicate 2: 5687

CG42258 #4
- infection score, replicate 1: 12.3
- infection score, replicate 2: 7.73
- cell count, replicate 1: 1111
- cell count, replicate 2: 5627

thoc6
- infection score, replicate 1: 2.86
- infection score, replicate 2: 4.83
- cell count, replicate 1: 5989
- cell count, replicate 2: 6155

CG5946
- infection score, replicate 1: 2.82
- infection score, replicate 2: 4.06
- cell count, replicate 1: 5705
- cell count, replicate 2: 6333

Jon25Biii #1
- infection score, replicate 1: 11.8
- infection score, replicate 2: 9.11
- cell count, replicate 1: 4975
- cell count, replicate 2: 5698

Jon25Biii #2
- infection score, replicate 1: 7.7
- infection score, replicate 2: 7.13
- cell count, replicate 1: 5692
- cell count, replicate 2: 4823

polybromo
- infection score, replicate 1: 4.95
- infection score, replicate 2: 10.6
- cell count, replicate 1: 6317
- cell count, replicate 2: 6495

A few values from the entries so far.
For “cell count, replicate 2”, CG6495 #1 is entered as 5793
CG42258 #3, cell count, replicate 1 = 5615

The list goes on:
obst-J #1
- infection score, replicate 1: 3.41
- infection score, replicate 2: 4.94
- cell count, replicate 1: 6827
- cell count, replicate 2: 6680

obst-J #2
- infection score, replicate 1: 22.1
- infection score, replicate 2: 19.6
- cell count, replicate 1: 5778
- cell count, replicate 2: 5064

CG11562
- infection score, replicate 1: 14.1
- infection score, replicate 2: 16.7
- cell count, replicate 1: 6349
- cell count, replicate 2: 6800

Cyt-c1L #1
- infection score, replicate 2: 7.93
- cell count, replicate 1: 343
- cell count, replicate 2: 4490

Cyt-c1L #2
- infection score, replicate 1: 4.23
- infection score, replicate 2: 0.7
- cell count, replicate 1: 6828
- cell count, replicate 2: 7050

Cyt-c1L #3
- infection score, replicate 1: 9.38
- infection score, replicate 2: 8.3
- cell count, replicate 1: 5895
- cell count, replicate 2: 5013

CG17782
- infection score, replicate 1: 3.62
- infection score, replicate 2: 7.02
- cell count, replicate 1: 6462
- cell count, replicate 2: 5545

CG15185
- infection score, replicate 1: 8.61
- infection score, replicate 2: 20.7
- cell count, replicate 1: 7070
- cell count, replicate 2: 4555
